The values below come from paper doi:10.1101/2025.04.14.648818.

Protein sequences, listed by entry. Tags and fused reporters are not part of them. Residues count along the entry.
UniProt P03300, 1566-2209: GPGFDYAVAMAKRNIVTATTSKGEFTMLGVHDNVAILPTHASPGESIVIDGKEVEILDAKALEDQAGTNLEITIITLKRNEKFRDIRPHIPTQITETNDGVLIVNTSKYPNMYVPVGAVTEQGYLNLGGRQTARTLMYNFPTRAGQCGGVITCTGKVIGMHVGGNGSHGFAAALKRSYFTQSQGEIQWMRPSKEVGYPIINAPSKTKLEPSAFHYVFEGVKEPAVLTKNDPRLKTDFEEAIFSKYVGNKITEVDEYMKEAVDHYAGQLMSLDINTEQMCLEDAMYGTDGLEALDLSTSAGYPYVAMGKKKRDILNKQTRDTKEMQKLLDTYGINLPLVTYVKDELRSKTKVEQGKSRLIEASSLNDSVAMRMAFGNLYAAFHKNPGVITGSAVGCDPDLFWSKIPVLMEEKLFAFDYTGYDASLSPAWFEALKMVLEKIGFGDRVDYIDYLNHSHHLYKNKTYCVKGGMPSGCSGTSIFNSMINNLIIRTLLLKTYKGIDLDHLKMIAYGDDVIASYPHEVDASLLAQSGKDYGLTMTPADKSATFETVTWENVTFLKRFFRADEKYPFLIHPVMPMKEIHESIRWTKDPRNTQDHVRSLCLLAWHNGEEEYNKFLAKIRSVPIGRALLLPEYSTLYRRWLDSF

For at least one entry, the source does not settle the construct or the ends of the probe. At least one verdict rests on a figure or table, not on a statement of the authors.

In series [1] the target is PV-3CD (Poliovirus) (UniProt P03300). Nature of the series: DIC microscopy. Particulars: indirect read-out.
Series [2] shares this target. Nature of the series: negative-stain EM. Particulars: oligomers ~20-40 nm, indirect read-out.

UUUUCUUUAAUUCGGAGAAAA [RNA-14]: the binding result with PV-3CD (Poliovirus) [1] is listed as “binds”.
On the same count and under the same terms, then CUACCUCAGUCGAAU [RNA-8], with “binds”; and GGGGUUGUACCCACCCC [RNA-10], with “binds”; and AGUUCAAGAGC [RNA-15], with “binds”.
Same read-out and setting: then CGCAGCAAACACAAG [RNA-7], with “binds”.
Still for that read-out and setting: then CAGAGGAACACGUGGCGGCG [RNA-13], with “binds”; and CUCCGGUAUUGCGGUACCCUUG [RNA-11], with “binds”; and UUUUUUUUUUUUUUU [RNA-3 (U15)], with “binds”.
For the sequence CCAUCAAGAAUCCUA [RNA-5], the binding result in the series with PV-3CD (Poliovirus) [1] is “binds”.
Still for that read-out and setting: then CGUUGGCUUGACUCA [RNA-9], with “binds”.
In the case of GGCGGCGUACUCCGG [RNA-1], the binding result in the series with PV-3CD (Poliovirus) [2] is given as “binds”.
As to ACCCCAGAGGCCCAC [RNA-4], the binding result in the series with PV-3CD (Poliovirus) [1] is “binds”.
The same measure, in the same setting: then GAUUGGGUCAUACUGUUGUAG [RNA-12], with “binds”; and AAAAAAAAAAAAAAA [RNA-6 (A15)], with “binds”.
